Source: patent publication US6664235B1, “Medicaments comprising sialic acid derivatives as active ingredients” (priority 1999, dated 2003)

Legend:
[1] = system: sialidase of influenza virus A/Singapore/1/57 (H2N2); assay type: biochemical, human isolate; conditions: read-out: Inhibitory activity (IC50, μM) Neu5Ac-DSPE as substrate
[2] = system: sialidase of influenza virus A/swine/Hokkaido/2/81 (H1N1); assay type: biochemical, swine isolate; conditions: read-out: Inhibitory activity (IC50, μM) 4-MU-Neu5Ac as substrate
[3] = system: sialidase of influenza virus A/duck/36/4/76 (H1N1); assay type: biochemical, avian isolate; conditions: read-out: Inhibitory activity (IC50, μM) Neu5Ac-DSPE as substrate
[4] = system: sialidase of influenza virus A/duck/313/4/78 (H5N3); assay type: biochemical, avian isolate

Measured: IC50

CCCCCCCCCCCCCCCCCC(=O)CC(COC(=O)CCCCCCCCCCCCCCCCC)COP(=O)(O)OCCNCCOC1(C(=O)O)OC(C(O)C(O)CO)C(NC(C)=O)C(O)C1F (centres unmarked) [Compound 9]
62.5 µM: [1] | [2] | [3] | [4]; read-out: Inhibitory activity (IC50, μM) 4-MU-Neu5Ac as substrate | [4]; read-out: Inhibitory activity (IC50, μM) Neu5Ac-DSPE as substrate

Where two headings read alike, the source gives them in different places.
